## Library screen at single concentrations

From ChEMBL document CHEMBL3988442, “University of Dundee, Small-Polar-MMV Screening Library” (2021).

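Whole-cell growth test on Mycobacterium tuberculosis, read after 3 days in glucose-containing 7H9 medium; the read-out is not stated. Compounds at 500 µM. Direction is inferred from retests: higher values go with more growth inhibition. Of about 18,000 compounds tested this way, about 1,400 (7.9%) reached 50% or more in at least one test.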

Results are given as percent effect.
How 0% and 100% were set is not recorded. Most values in the screen are low, and negative values occur.
The entries come from a sample that favours strong results.

| # | structure | Percent Effect |
|---|---|---|
| 1 | `CCOC(=O)CN(C)C(=O)c1ccc(=O)n(C)n1` | -6.889% |
| 2 | `COc1ccc(-c2nc(CCN)co2)cc1` | 82.39% |
| 3 | `N#Cc1cccc(C2CNCCO2)c1` (centres undefined) | 43.83% |
| 4 | `CCCC(=O)NCc1nnc(C2CCC2)n1C` | -7.919% |
| 5 | `CCN(Cc1noc(C)n1)Cc1cncn1CC` | 3.73% |
| 6 | `CCN1CCC(O)CC1` | 11.8% |
| 7 | `CCC(=O)NCCCN1CCc2ccccc2C1` | 21.11% |
| 8 | `COCC(C)NC(=O)NCc1ccc(F)cc1` (centres undefined) | 19.02% |
| 9 | `O=C(OCCc1ccccc1F)C1CCS(=O)(=O)C1` (centres undefined) | 25.66% |
| 10 | `CS(=O)(=O)NCc1ccnc(Oc2ccc(F)cc2)c1` | 55.38% |
| 11 | `CCC1c2ccsc2CCN1C(=O)c1ccc(CN)o1` (centres undefined) | 73.74% |
| 12 | `COc1ncccc1C(=O)NC(C)Cn1cccn1` (centres undefined) | 8.297% |
| 13 | `CNc1nc(C(=O)NC2COc3ccccc3C2)cs1` (centres undefined) | 77.83% |
| 14 | `CCCOc1ccc(NS(=O)(=O)N(C)C)cc1Cl` | 17.65% |
| 15 | `COc1ccccc1N1CCC(N)C1` (centres undefined) | 81.65% |
| 16 | `CCOC(=O)C(O)c1cc(Br)c2c(c1)OCO2` (centres undefined) | 60.14% |
| 17 | `Cn1cc(C(=O)Nc2ccc(-n3cncn3)nc2)cn1` | 6.476% |
| 18 | `O=C(c1ccncc1F)N1CCOc2ncccc21` | -12.67% |
| 19 | `Nc1ccnc(-c2ccccc2)n1` | 23.47% |
| 20 | `c1cn(C2CCNCC2)nn1` | 97.7% |
| 21 | `CN(C)c1cc(CO)ccn1` | -9.609% |
| 22 | `CN(Cc1cnn(C)c1)C(=O)C1CCCN(C(N)=O)C1` (centres undefined) | 8.624% |
| 23 | `Cc1noc(OCC(=O)Nc2ccccc2)n1` | 7.765% |
| 24 | `CCS(=O)(=O)NCCNC(=O)c1ccccc1` | 25.09% |
| 25 | `Cc1nc2c(c(NCc3ccc(N)nc3)n1)CCCC2` | 4.687% |
| 26 | `COc1ccccc1S(=O)(=O)N1CCCCC1CN` (centres undefined) | 32.57% |
| 27 | `CCN(C)S(=O)(=O)NCC1(N)CCCCC1` | -4.73% |
| 28 | `Cn1cc(Br)cc1C(=O)NCCCNc1ncccn1` | 61.13% |
| 29 | `COCc1nn(Cc2cccc(C#N)c2)c(=O)o1` | 40.56% |
| 30 | `NCCc1ccc(CO)cc1` | 23.57% |
| 31 | `CCN(Cc1cnc(N)nc1)CC1CCOCC1` | -9.449% |
| 32 | `CCN1CCc2nc(NC(=O)c3ccncc3)sc2C1` | -15.31% |
| 33 | `CN1CCCC(NC(=O)NCCc2ccncc2)C1` (centres undefined) | 7.77% |
| 34 | `CN1CCN(C(=O)COc2ccc(F)cc2F)CC1` | 29.01% |
| 35 | `CC1(C)CC(CCN)CCO1` (centres undefined) | 12.32% |
| 36 | `O=C1COCC(=O)N1CCc1ccc(Cl)cc1` | -5.919% |
| 37 | `O=C(CCNCCO)c1ccccc1` | 97.02% |
| 38 | `Cc1cccc(NC(=O)Cn2cnnn2)c1` | 3.502% |
| 39 | `CCCS(=O)(=O)N(C)Cc1cccc(OCC)n1` | 61.91% |
| 40 | `CC(C)(C(=O)NCc1cccnc1)c1ccccc1` | 23.51% |
| 41 | `Cc1cc(C(=O)NCCCN(C)C)c2ccccc2n1` | 9.008% |
| 42 | `N#Cc1ccc(OCc2cc(=O)n3ccsc3n2)cc1` | 8.816% |
| 43 | `CN1CCC(CNC(=O)c2ccccc2F)CC1` | 4.488% |
| 44 | `CN(C)CCn1nccc1N` | 13.11% |
| 45 | `CC(C)Oc1ccc(CNC(=O)N2CCCC2)cn1` | 70.99% |
| 46 | `COCCC(CO)NC(=O)c1cnn(C(C)C)c1C` (centres undefined) | 59.45% |
| 47 | `CSCc1ccc(C(=O)NCCc2cccnc2)o1` | 35.56% |
| 48 | `Cn1c(C(=O)OCCCC(N)=O)cc2ccccc21` | -11.89% |
| 49 | `C[n+]1ccn(C(=O)N2CCCCC2)c1.[I-]` | 10.87% |
| 50 | `CCOC(=O)c1cc(C(=O)OCC)n(C)n1` | -2.257% |
| 51 | `COc1ccc(NC(=O)NC(C)(C)C(C)(C)O)cc1` | 59.08% |
| 52 | `CNCC(C)(C)CO` | 10.81% |
| 53 | `NC(=O)CN1CCC(NS(=O)(=O)c2cccs2)CC1` | 29.47% |
| 54 | `O=C1C2CSCC1CN(Cc1ccccc1)C2` | 1.775% |
| 55 | `CCN1CCN(Cc2nc(-c3ccccc3)no2)CC1` | 53.3% |
| 56 | `O=C(CCN1CCC(C(F)(F)F)CC1)N1CCOCC1` | -4.549% |
| 57 | `CN(C)c1cc(CNc2ncnc3[nH]ncc23)ccn1` | 31.52% |
| 58 | `CCC(CO)N1CCN(c2cccc(C)n2)CC1` (centres undefined) | 15% |
| 59 | `Cc1c[nH]c(CN(C)C(=O)CC2CN(C)CCN2C)n1` (centres undefined) | -3.066% |
| 60 | `CCNC(=O)c1ccc(N2CCOCC2)nc1` | 10.42% |
| 61 | `O=C(CN1CCC(O)CC1)N1CCCCCCC1` | 10.63% |
| 62 | `CC1Cc2ccccc2N1C(=O)c1ccccn1` (centres undefined) | 54.56% |
| 63 | `O=C1CCN(Cc2cc(Br)cc3cccnc23)CCN1` | 65.19% |
| 64 | `NC(=O)c1ccc(S(N)(=O)=O)cc1` | 39.3% |
| 65 | `O=C(NCCNS(=O)(=O)Cc1ccccc1)C1CCC1` | 18.09% |
| 66 | `CC(=O)Nc1nc(C(=O)NCc2ccc(C)s2)cs1` | 72% |
| 67 | `O=C(Cc1cccc(O)c1)NCCNc1ccccc1` | 40.46% |
| 68 | `CN(CCNC(=O)Nc1cn[nH]c1)C1CCCCC1` | -0.2909% |
| 69 | `Cc1[nH]ncc1CCCNC(=O)CCN` | -5.272% |
| 70 | `Cc1ccc(C)c(C(=O)N2C[C@@H](CO)[C@H](N(C)C)C2)c1` | 5.915% |
| 71 | `CC(N)C(=O)Nc1ccc(Cl)cc1` (centres undefined) | 24.08% |
| 72 | `Cc1ccc2nc(CCN)oc2c1` | 60.65% |
| 73 | `NCCNC(=O)c1ccc(-c2ccc(Cl)cc2)s1` | 96.41% |
| 74 | `COc1ccc(CN2C[C@@H](O)[C@@H](O)C2)c(Br)c1OC` | 29.42% |
| 75 | `CN1CCN(C)C(CC(=O)NCc2ccoc2)C1` (centres undefined) | 3.617% |
| 76 | `CCn1cc(COC2CCNC2)cn1` (centres undefined) | 6.815% |
| 77 | `CCNC(=O)CN(CC)Cc1ccc(C#N)cc1` | 22.98% |
| 78 | `CSCc1nc(CNC(=O)CCc2ccnn2C)cs1` | 13.43% |
| 79 | `COCc1nc(CN)cs1` | 12.06% |
| 80 | `COCCCNS(=O)(=O)c1cccc2cc(C)cnc12` | 42.24% |
| 81 | `OC1CCCn2ccnc21` (centres undefined) | 8.582% |
| 82 | `Cc1ccsc1CN(CC(=O)N1CCNC1=O)C(C)C` | 9.138% |
| 83 | `CC(C(=O)Nc1sccc1C(N)=O)N1CCCC1` (centres undefined) | 18.74% |
| 84 | `COCCNC(C)(C)CO` | 9.538% |
| 85 | `CNCc1cscn1` | 20.9% |
| 86 | `CCC(=O)c1cccc(S(=O)(=O)NCC(C)(C)N)c1` | 30.5% |
| 87 | `CC(CN)c1ccc(S(C)(=O)=O)cc1` (centres undefined) | 3.735% |
| 88 | `O=C(NC1COC2(CCNCC2)C1)c1cnccn1` (centres undefined) | 2.787% |
| 89 | `CC(C)Oc1cc(Br)cc(C(=O)NCCC(N)=O)c1` | 37.26% |
| 90 | `COC(=O)c1ccc(CCN)c(OC)c1` | 35.49% |
| 91 | `OCC12CCCN(CC1)C2` (centres undefined) | 1.59% |
| 92 | `Cc1nc(C(F)(F)F)ccc1C(=O)NCCS(C)(=O)=O` | -3.443% |
| 93 | `CCOc1ccc(S(=O)(=O)N2CCNC(=O)C2)cc1C` | 3.348% |
| 94 | `Cc1cc(Cl)ccc1NC(=O)CN1CCN(C)CC1` | 52.23% |
| 95 | `CCC(=O)NC1CCNC1` (centres undefined) | 0.2667% |

For reference, 5 entries once more:

{"structure": "CNc1nc(C(=O)NC2COc3ccccc3C2)cs1", "stereo": "centres undefined", "Percent Effect": 77.83}
{"structure": "CCN(Cc1noc(C)n1)Cc1cncn1CC", "Percent Effect": 3.73}
{"structure": "Cn1cc(Br)cc1C(=O)NCCCNc1ncccn1", "Percent Effect": 61.13}
{"structure": "Cc1ccsc1CN(CC(=O)N1CCNC1=O)C(C)C", "Percent Effect": 9.138}
{"structure": "CC(C)Oc1cc(Br)cc(C(=O)NCCC(N)=O)c1", "Percent Effect": 37.26}